Measured values from several laboratories, pooled; numbers as filed in NIAID ChemDB.

Shared fields: enzyme or target tests

Lines come from different laboratories, so protocols vary. Fold resistance has wild type as its base. Blank or dashed fields: not listed here. Percent inhibition refers to the dose given; in toxicity tests it is the harm to the cells. ICn is the concentration giving n% inhibition. a–b is a range or a potency band.

structure,method,tested at,changes,measure,strain or isolate,protein,organism,value
O=C(O)CCN1C(=O)C(=Cc2ccc(-c3cccs3)o2)SC1=S,-,-,-,IC50,-,NS5 polymerase,Bovine viral diarrhea virus,≤1 µM
COCc1ccccc1-c1ccc(-c2nc3cc(C(=O)O)[nH]n3c(=O)c2C2CCCCC2)cc1,-,-,-,IC50,-,RNA-dependent RNA polymerase,Hepatitis C virus,1–10 µM
C=CCN(C(=O)c1ccc(C)cc1)c1cc(-c2ccccc2)sc1C(=O)O,-,-,-,IC50,-,NS3 ATPase,Hepatitis C virus,<5 µM
COc1ccc(C)c(Oc2ccc(-c3cnc4c(-c5nn[nH]n5)cnn4c3C3CCCCC3)cc2)c1,-,-,-,IC50,-,RNA-dependent RNA polymerase,Hepatitis C virus,1–10 µM
CC(C)(C(=O)Nc1cn2ccn(Cc3cccc(Cl)c3)c(=O)c2c(O)c1=O)c1ccccc1,ELISA,-,-,IC50,-,Integrase,HIV-1,<0.01 µM
CCOc1ccc2ccccc2c1C(=O)Nc1nnc(NCC2CC2)s1,-,-,-,IC50,-,Polymerase,Human cytomegalovirus,>25 µM
O=C(N[C@@H](Cc1cc2ccccc2[nH]1)C(=O)O)c1cc2nc(-c3ccco3)c(C3CCCCC3)c(=O)n2[nH]1,-,-,-,IC50,-,RNA-dependent RNA polymerase,Hepatitis C virus,<1 µM
Cc1ccc(C(=O)N(c2cc(-c3cccc(C(F)(F)F)c3)sc2C(=O)O)C(C)C)c(O)c1,-,-,-,IC50,-,NS3 ATPase,Hepatitis C virus,5–20 µM
O=C1c2c(O)c(=O)c(NS(=O)(=O)Cc3ccccc3)cn2CCN1Cc1ccc(F)c(Cl)c1,ELISA,-,-,IC50,-,Integrase,HIV-1,<0.01 µM
CCOc1ccc(-c2cncc(N3CCN(c4ccc(OC)c(OC)c4)CC3)n2)cc1,-,1 µM,-,inhibition,-,UL97 kinase,Cytomegalovirus,<50%
Nc1nc(N)c2c(n1)Cc1c(Cl)cccc1-2,-,-,-,IC50,TYPE 1,Dihydrofolate reductase,Cryptosporidium parvum,>10 µM
COc1ccc(-c2cncc(NCCc3cccnc3)n2)cc1,-,-,-,IC50,-,UL97 kinase,Cytomegalovirus,<1 µM
CC(C)C(=O)c1cn2c(c(O)c1=O)C(=O)N(Cc1ccc(Cl)c(Cl)c1)CC2,ELISA,-,-,IC50,-,Integrase,HIV-1,<0.01 µM
O=C(O)CN1C(=O)C(=Cc2ccc(-c3cc(C(F)(F)F)ccc3Cl)o2)SC1=S,-,-,-,IC50,-,NS5 polymerase,Bovine viral diarrhea virus,≤1 µM
N#Cc1ccc(C(=O)Nc2nnc(NCC3CCCCC3)s2)cc1,-,-,-,IC50,-,Polymerase,Human cytomegalovirus,>25 µM
COc1ccc2ccc3nc(N)nc(N)c3c2c1,-,-,-,IC50,TYPE 1,Dihydrofolate reductase,Cryptosporidium parvum,1.2 µM
COc1cccc(-c2ccc(-c3cnc4c(C(=O)O)cnn4c3C3CCCCC3)cc2)c1,-,-,-,IC50,-,RNA-dependent RNA polymerase,Hepatitis C virus,1–10 µM
CCCc1ccc(-c2ccc(C=C3SC(=S)N(CCC(=O)O)C3=O)o2)s1,-,-,-,IC50,-,NS5 polymerase,Bovine viral diarrhea virus,≤1 µM
COc1cc(NCc2cccc3nc(N)nc(N)c23)cc(OC)c1OC,-,-,-,IC50,TYPE 1,Dihydrofolate reductase,Cryptosporidium parvum,>10 µM
O=C(Nc1nnc(NC2CCCCCC2)s1)c1ccc(I)cc1,-,-,-,IC50,-,Polymerase,Human cytomegalovirus,>25 µM
COc1ccc(Br)cc1-c1ccc(C=C2SC(=S)N(c3ccc(C(=O)O)cc3)C2=O)o1,-,-,-,IC50,-,NS5 polymerase,Bovine viral diarrhea virus,≤1 µM
Cc1ccccc1S(=O)(=O)Nc1cc(-c2ccc(C(=O)O)cc2)sc1C(=O)OC(C)(C)C,-,-,-,IC50,-,NS3 ATPase,Hepatitis C virus,5–20 µM
O=C(Nc1nnc(NCc2ccc(F)cc2)s1)c1cc2ccccc2s1,-,-,-,IC50,-,Polymerase,Human cytomegalovirus,>25 µM
CN(C)c1ccc(-c2cncc(N3CCN(c4ccccc4F)CC3)n2)cc1,-,1 µM,-,inhibition,-,UL97 kinase,Cytomegalovirus,<50%
Nc1nc(N)c2c(CNc3cc(Cl)c(-n4cccc4)c(Cl)c3)c(Br)sc2n1,-,-,-,IC50,TYPE 2,Dihydrofolate reductase,Cryptosporidium parvum,>10 µM
CC(Oc1ccc(-c2cnc3c(-c4nn[nH]n4)cnn3c2C2CCCCC2)cc1)c1cccc(C(F)(F)F)c1,-,-,-,IC50,-,RNA-dependent RNA polymerase,Hepatitis C virus,1–10 µM
COC(=O)c1cn(Cc2cccc(Cl)c2)c(=O)c2c(O)c(=O)ccn12,ELISA,-,-,IC50,-,Integrase,HIV-1,0.01–0.1 µM
COc1ccc(N2CCN(c3cncc(-c4ccccc4)n3)CC2)cc1,-,10 µM,-,inhibition,-,UL97 kinase,Cytomegalovirus,>15%
CC(C)=CCc1c(-c2ccc(OCc3ccccc3)cc2)nc2cc(C(=O)O)[nH]n2c1=O,-,-,-,IC50,-,RNA-dependent RNA polymerase,Hepatitis C virus,1–10 µM
O=C(/C=C/c1ccccc1)Nc1nnc(NCc2ccc3c(c2)OCO3)s1,-,-,-,IC50,-,Polymerase,Human cytomegalovirus,>25 µM
O=C(O)c1cc2nc(-c3ccccc3Cl)cc(-c3ccc(Cl)cc3)n2n1,-,-,-,IC50,-,RNA-dependent RNA polymerase,Hepatitis C virus,>10 µM
CCCCCCCC/C=C/CCCCCCCC(=O)Nc1nnc(NCc2ccccn2)s1,-,-,-,IC50,-,Polymerase,Human cytomegalovirus,>25 µM
Nc1nc(N)c2nc(CN(c3ccccc3)c3ccccc3)cnc2n1,-,-,-,IC50,TYPE 1,Dihydrofolate reductase,Cryptosporidium parvum,>10 µM
Clc1ccc(N2CCN(c3cncc(-c4csc5ccccc45)n3)CC2)cc1,-,1 µM,-,inhibition,-,UL97 kinase,Cytomegalovirus,<50%
CCOC(=O)c1c(C)c(S(=O)(=O)Nc2cc(-c3ccccc3)sc2C(=O)O)c(-c2ccc(Cl)cc2)n1-c1ccccc1,-,-,-,IC50,-,NS3 ATPase,Hepatitis C virus,5–20 µM
COc1cccc(-c2cncc(N3CCN(c4cccc(OC)c4)CC3)n2)c1,-,1 µM,-,inhibition,-,UL97 kinase,Cytomegalovirus,<50%
O=C(O)c1ccc(N2C(=O)C(=Cc3ccc(-c4cc(Cl)ccc4Cl)o3)SC2=S)cc1,-,-,-,IC50,-,NS5 polymerase,Bovine viral diarrhea virus,≤1 µM
Nc1nc2c(ncn2[C@H]2CO[C@@H](COP(=O)(O)OP(=O)(O)OP(=O)(O)O)O2)c(=O)[nH]1,radiometric,-,RT-K103N,fold resistance,-,Reverse transcriptase,HIV,0.55
COc1ccc(N2CCN(c3cnccn3)C(c3cc4ccccc4o3)C2)cc1,-,-,-,IC50,-,UL97 kinase,Cytomegalovirus,<10 µM
CC(C)c1cc(C(C)C)c(C(=O)Nc2nnc(NCCC(c3ccccc3)c3ccccc3)s2)c(C(C)C)c1,-,-,-,IC50,-,Polymerase,Human cytomegalovirus,>25 µM
COc1cc(NCc2c(Br)sc3nc(N)nc(N)c23)cc(OC)c1OC,-,-,-,IC50,TYPE 2,Dihydrofolate reductase,Cryptosporidium parvum,>10 µM

The last 4 rows once more:

{"structure": "Nc1nc2c(ncn2[C@H]2CO[C@@H](COP(=O)(O)OP(=O)(O)OP(=O)(O)O)O2)c(=O)[nH]1", "method": "radiometric", "changes": "RT-K103N", "measure": "fold resistance", "protein": "Reverse transcriptase", "organism": "HIV", "value": "0.55"}
{"structure": "COc1ccc(N2CCN(c3cnccn3)C(c3cc4ccccc4o3)C2)cc1", "measure": "IC50", "protein": "UL97 kinase", "organism": "Cytomegalovirus", "value": "<10 µM"}
{"structure": "CC(C)c1cc(C(C)C)c(C(=O)Nc2nnc(NCCC(c3ccccc3)c3ccccc3)s2)c(C(C)C)c1", "measure": "IC50", "protein": "Polymerase", "organism": "Human cytomegalovirus", "value": ">25 µM"}
{"structure": "COc1cc(NCc2c(Br)sc3nc(N)nc(N)c23)cc(OC)c1OC", "measure": "IC50", "strain or isolate": "TYPE 2", "protein": "Dihydrofolate reductase", "organism": "Cryptosporidium parvum", "value": ">10 µM"}